Experimental data taken from patent publication US11312773B2, “Anti-PD-L1 antibody” (Fuso Pharmaceutical Industries, Ltd., priority 2016, dated 2022).

How the values were obtained:
[1] = tested on: BLV-specific T cell proliferation; experiment: Inoculation test on BLV-infected calf: T cell proliferation response to BLV antigen; format: in vivo, bovine; settings: 1 mg/kg i.v.
Procedure: Bovine PBMCs were suspended in PBS and reacted with CFSE at room temperature for 20 min. […] As a control, culture supernatant of 2% BLV-not-infected fetal lamp kidney cells (FLK) was used. After a 6-day culture, PBMCs were collected and reacted with anti-bovine CD4 mouse antibody, anti-bovine CD8 mouse antibody and anti-bovine IgM mouse antibody (Bio-Rad) at 4° C. for 20 min. For the labeling of antibodies. Zenon Mouse IgG1 Labeling Kits (Life Technologies) or Lightning-Link Kit (Innova Biosciences) was used. For analysis, FACS Verse (BD Biosciences) was used. For every washing operation and dilution of antibody, PBS supplemented with 1% bovine serum albumin (Sigma-Aldrich) was used.

[2] = tested on: PBMCs of BLV-infected cattle; experiment: Biological activity test: IFN-γ production of PBMCs of BLV-infected cattle to BLV antigen; settings: 10 μg/ml antibody, 2% FLK-BLV supernatant, 6 days, n=10

B1: ch4G12: rat-bovine chimeric anti-bovine PD-L1 antibody, 4G12 variable regions, mutated bovine IgG1 and Igλ constant regions; SEQ ID NOS: 105 and 106 (protein)
light: MESQTHVLISLLLSVSGTYGDIAITQSPSSVAVSVGETVTLSCKSSQSLLYSENQKDYLGWYQQKPGQTPKPLIYWATNRHTGVPDRFTGSGSGTDFTLIISSVQAEDLADYYCGQYLVYPFTFGPGTKLELKQPKSPPSVTLFPPSTEELNGNKATLVCLISDFYPGSVTVVWKADGSTITRNVETTRASKQSNSKYAASSYLSLTSSDWKSKGSYSCEVTHEGSTVTKTVKPSECS
heavy: MGWSQIILFLVAAATCVHSQVQLQQSGAELVKPGSSVKISCKASGYTFTSNFMHWVKQQPGNGLEWIGWIYPEYGNTKYNQKFDGKATLTADKSSSTAYMQLSSLTSEDSAVYFCASEEAVISLVYWGQGTLVTVSSASTTAPKVYPLSSCCGDKSSSTVTLGCLVSSYMPEPVTVTWNSGALKSGVHTFPAVLQSSGLYSLSSMVTVPGSTSGQTFTCNVAHPASSTKVDKAVDPTCKPSPCDCCPPPPVAGPSVFIFPPKPKDTLTISGTPEVTCVVVDVGHDDPEVKFSWFVDDVEVNTATTKPREEQFNSTYRVVSALRIQHQDWTGGKEFKCKVHNEGLPSSIVRTISRTKGPAREPQVYVLAPPQEELSKSTVSLTCMVTSFYPDYIAVEWQRNGQPESEDKYGTTPPQLDADSSYFLYSKLRVDRNSWQEGDTYTCVVMHEALHNHYTQKSTSKSAGK
modifications: chimeric L chain; chimeric H chain
- BLV-specific cell proliferation response of CD4-positive T cells vs before administration [1]: increased
- IFN-γ response of bovine PBMCs to BLV antigen [2]: increases
